Reference: ChEMBL document CHEMBL1201862, “PubChem BioAssay data set” (2004)
Some of the results follow. These assays gave more results; the selection is not random. Active and inactive are the calls of the source. No cut-off for these calls is given here.

Each compound was assayed against T1, Pyruvate kinase (Leishmania mexicana) (UniProt Q27686) (assay: qHTS Assay for Activators of Leishmania Mexicana Pyruvate Kinase (LmPK).).
T1 sequence (whole entry): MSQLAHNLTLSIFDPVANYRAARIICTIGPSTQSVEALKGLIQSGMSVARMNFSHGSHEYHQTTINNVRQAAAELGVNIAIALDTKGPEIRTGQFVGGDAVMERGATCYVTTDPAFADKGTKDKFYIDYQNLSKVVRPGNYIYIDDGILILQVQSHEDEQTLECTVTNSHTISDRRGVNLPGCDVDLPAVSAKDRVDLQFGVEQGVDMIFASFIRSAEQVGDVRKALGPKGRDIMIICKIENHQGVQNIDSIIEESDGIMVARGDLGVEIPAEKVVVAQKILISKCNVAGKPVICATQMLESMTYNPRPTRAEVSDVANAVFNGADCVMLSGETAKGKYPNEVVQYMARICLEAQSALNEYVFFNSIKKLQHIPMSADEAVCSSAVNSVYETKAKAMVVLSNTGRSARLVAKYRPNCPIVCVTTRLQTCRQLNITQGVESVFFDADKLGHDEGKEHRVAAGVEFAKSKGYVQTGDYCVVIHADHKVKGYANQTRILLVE
Assay type: functional
For `CS(=O)(=O)c1cc([N+](=O)[O-])c2no[n+]([O-])c2c1`, the Potency was “inactive”.
